A mixed list of measured activities; the numbers were collected in NIAID ChemDB.

All rows: tests in culture

Blank or dashed fields: not listed here.

smiles | read by | read-out | dose | conditions | species | strain or isolate | value
CCCCCCCCCCCCCCCCCCCCCC(=O)NC(CCC(=O)O)(CCC(=O)O)CCC(=O)O |  | MIC |  |  | Mycobacterium marinum | ATCC 927 | 54 µg/mL
Cc1ccc2oc(=O)n(-c3ccc(C(F)(F)F)cc3)c(=S)c2c1 |  | MIC |  | 14 d | Mycobacterium kansasii | 6509/96 | 16 µM
CCOc1ccc(N2CCC(c3ccc(CNC(=O)c4c(CC)nc5ccc(Cl)cn45)cc3F)CC2)cc1.Cl | fluorescence | inhibition | 0.019 µM |  | Mycobacterium avium |  | 85%
CCCCCCCCCCCCCCNC(=O)NC(CCC(=O)O)(CCC(=O)O)CCC(=O)O |  | MIC |  |  | Mycobacterium smegmatis | mc155 | 18 µg/mL
Cc1ccn2c(C(=O)NCc3ccc(-c4ccc(Cl)cc4)cc3)c(C)nc2c1 | fluorescence | MIC50 |  |  | Mycobacterium ulcerans |  | 0.001–0.01 µg/mL
CC[C@H]1OC(=O)[C@H](C)[C@@H](OC(=O)CCCCCc2ccccc2)[C@H](C)[C@@H](O[C@@H]2O[C@H](C)C[C@H](N(C)C)[C@H]2O)C(C)(O)C[C@@H](C)/C(=N\OCCCOc2ccccc2)[C@H](C)[C@@H](O)[C@]1(C)O |  | MIC |  |  | Mycobacterium avium complex | 20092 (clarithromycin-resistant) | 25 µg/mL
O=C(NCc1ccc(N2CCCCC2)cc1)c1c(Cl)nc2ccccn12 | fluorescence | MIC50 |  |  | Mycobacterium ulcerans |  | 0.01–0.1 µg/mL
Cc1cn2c(C(=O)NCc3ccc(N4CCC5(CCN(c6ccc(C(F)(F)F)cc6)CC5)CC4)c(F)c3)c(C)nc2s1 | fluorescence | inhibition | 0.029 µM |  | Mycobacterium avium |  | 85%
CC[C@H]1OC(=O)[C@H](C)[C@@H](OC2C[C@@](C)(OC)[C@@H](OC(=O)CCCc3ccccc3)[C@H](C)O2)[C@H](C)[C@@H](O[C@@H]2O[C@H](C)C[C@H](N(C)C)[C@H]2O)C(C)(O)C[C@@H](C)/C(=N\OCCCOc2ccccc2)[C@H](C)[C@@H](O)[C@]1(C)O |  | MIC |  |  | Mycobacterium avium complex | 20096 (clarithromycin-resistant) | 3.13 µg/mL
COc1ccc2oc(=S)n(-c3ccc(C(F)(F)F)cc3)c(=S)c2c1 |  | MIC |  | 21 d | Mycobacterium kansasii | 6509/96 | 32 µM
CCCCCCCCCCCCCCCCCCCCCOC(=O)NC(C)(CCC(=O)O)CCC(=O)O |  | MIC |  |  | Mycobacterium chelonae | EO-P-1 | 177 µg/mL
CO[C@@]1(NC(=O)C(C(=O)O)c2ccc(O)cc2)C(=O)N2C(C(=O)O)=C(CSc3nnnn3C)CO[C@@H]21 |  | MIC |  |  | Mycobacterium fortuitum | 1004-8 | >100 µg/mL
Cc1ccn2c(C(=O)NCc3ccc(-c4ccccc4)cc3)c(C)nc2c1 | fluorescence | MIC50 |  |  | Mycobacterium ulcerans |  | 0.1–1 µg/mL
CO[C@@]1(NC(=O)Cn2cnnn2)C(=O)N2C(C(=O)O)=C(CSc3nnc(C)s3)CSC21 |  | MIC |  |  | Mycobacterium fortuitum | 1049 | 50 µg/mL
CCCCCCCCCCCCCCCCNC(=O)NC(CCC(=O)O)(CCC(=O)O)CCC(=O)O |  | MIC |  |  | Mycobacterium chelonae | EO-P-1 | 18 µg/mL
CCCCCCCCCCNNC(=O)O[C@H]1[C@H](O[C@@H]2[C@@H](C)[C@H](O[C@H]3C[C@@](C)(OC)[C@@H](OC(C)=O)[C@H](C)O3)[C@@H](C)C(=O)O[C@H](CC)[C@@](C)(O)[C@H](O)[C@@H](C)/C(=N/OCCCC3CCCCC3)[C@H](C)CC2(C)O)O[C@H](C)C[C@@H]1N(C)C |  | MIC |  |  | Mycobacterium avium complex | 20092 (clarithromycin-resistant) | >50 µg/mL
Cc1ccc(-n2c(=O)oc3ccc(F)cc3c2=S)cc1 |  | MIC |  | 14 d | Mycobacterium kansasii | My 235/80 | 1 µM
CC[C@H]1OC(=O)[C@H](C)[C@@H](O[C@H]2C[C@@](C)(OC)[C@@H](OC(C)=O)[C@H](C)O2)[C@H](C)[C@@H](O[C@@H]2O[C@H](C)C[C@H](N(C)C)[C@H]2OC(=O)NN(C)C)C(C)(O)C[C@@H](C)/C(=N\OCCCC2CCCCC2)[C@H](C)[C@@H](O)[C@]1(C)O |  | MIC |  |  | Mycobacterium avium complex | 20092 (clarithromycin-resistant) | 3.13 µg/mL
CO[C@@]1(NC(=O)C2SC(=C(C(N)=O)C(=O)[O-])S2)C(=O)N2C(C(=O)[O-])=C(CSc3nnnn3C)CS[C@@H]21 |  | MIC |  |  | Mycobacterium fortuitum | 1004-8 | 100 µg/mL
CCCCCCCCCCCCCCCCCCCCCCOC(=O)NC(C)(CCC(=O)O)CCC(=O)O |  | MIC |  |  | Mycobacterium marinum | ATCC 927 | 394 µg/mL
Cc1ccc2oc(=O)n(-c3ccc(F)cc3)c(=S)c2c1 |  | MIC |  | 14 d | Mycobacterium kansasii | My 235/80 | 8 µM
CC[C@H]1OC(=O)[C@H](C)[C@@H](O[C@H]2C[C@@](C)(OC)[C@@H](OC(C)=O)[C@H](C)O2)[C@H](C)[C@@H](O[C@@H]2O[C@H](C)C[C@H](N(C)C)[C@H]2OC(=O)NNCCCCc2ccccc2)C(C)(O)C[C@@H](C)/C(=N\OCCCC2CCCCC2)[C@H](C)[C@@H](O)[C@]1(C)O |  | MIC |  |  | Mycobacterium avium complex | 20096 (clarithromycin-resistant) | 3.13 µg/mL
CO[C@@]1(NC(=O)Cc2cccs2)C(=O)N2C(C(=O)O)=C(COC(N)=O)CS[C@@H]21 |  | MIC |  |  | Mycobacterium fortuitum | 1047 | 12.5 µg/mL
Cc1ccn2c(C(=O)NCc3ccc(-c4ccc(OC(C)C)cc4)c(F)c3)c(C)nc2c1 | fluorescence | inhibition | 0.13 µM |  | Mycobacterium avium |  | 85%
CC[C@H]1OC(=O)[C@H](C)[C@@H](OC(=O)C(C)C)[C@H](C)[C@@H](O[C@@H]2O[C@H](C)C[C@H](N(C)C)[C@H]2O)C(C)(O)C[C@@H](C)/C(=N\OCCCOc2ccccc2)[C@H](C)[C@@H](O)[C@]1(C)O |  | MIC |  |  | Mycobacterium avium complex | 20092 (clarithromycin-resistant) | 12.5 µg/mL
CNC(=O)c1c(-c2ccc(C)cc2)nc2ccccn12 | fluorescence | MIC50 |  |  | Mycobacterium ulcerans |  | >10 µg/mL
CO[C@@]1(NC(=O)CCCC(N)C(=O)O)C(=O)N2C(C(=O)O)=C(COC(N)=O)CSC21 |  | MIC |  |  | Mycobacterium fortuitum | 1059 | >100 µg/mL
CC[C@H]1OC(=O)[C@H](C)[C@@H](OC2C[C@@](C)(OC)[C@@H](O)[C@H](C)O2)[C@H](C)[C@@H](O[C@@H]2O[C@H](C)C[C@H](N(C)C)[C@H]2O)C(C)(O)C[C@@H](C)/C(=N\OCCOc2ccccc2)[C@H](C)[C@@H](O)[C@]1(C)O |  | MIC |  |  | Mycobacterium avium complex | 20092 (clarithromycin-resistant) | 12.5 µg/mL
Cc1ccn2c(C(=O)NCc3ccc(O[C@H]4CCN(c5ccc(OC(F)(F)F)cc5)C4)c(F)c3)c(C)nc2c1 | fluorescence | inhibition | 0.5 µM |  | Mycobacterium avium |  | 85%
Cc1ccc2nc(C)c(C(=O)NCc3ccc(OC(F)(F)F)cc3)n2c1 | fluorescence | MIC50 |  |  | Mycobacterium ulcerans |  | 0.01–0.1 µg/mL
CO[C@H]1/C=C/O[C@@]2(C)Oc3c(C)c(O)c4c(O)c(c(/C=N/N5CCN(C6CCCC6)CC5)c(O)c4c3C2=O)NC(=O)/C(C)=C\C=C\[C@H](C)[C@H](O)[C@@H](C)[C@@H](O)[C@@H](C)[C@H](OC(C)=O)[C@@H]1C |  | MIC |  |  | Mycobacterium avium intracellulare | 119 | 1 µg/mL
Fc1ccc2oc(=S)n(-c3ccc(Cl)cc3)c(=S)c2c1 |  | MIC |  | 21 d | Mycobacterium kansasii | 6509/96 | 4 µM
Cc1ccc2nc(C)c(C(=O)NCc3ccc(N4CCN(c5ccc(OC(F)(F)F)cc5)C(C)(C)C4)c(F)c3)n2c1 | fluorescence | inhibition | 0.14 µM |  | Mycobacterium avium |  | 85%
CCCCCCCCCCCCO/N=C1\[C@H](C)CC(C)(O)[C@H](O[C@@H]2O[C@H](C)C[C@H](N(C)C)[C@H]2O)[C@@H](C)[C@H](O[C@H]2C[C@@](C)(OC)[C@@H](OC(C)=O)[C@H](C)O2)[C@@H](C)C(=O)O[C@H](CC)[C@@](C)(O)[C@H](O)[C@H]1C |  | MIC |  |  | Mycobacterium avium complex | 20096 (clarithromycin-resistant) | 6.25 µg/mL
CCCCCCCCCC(CCCCCCCCC)NC(=O)NC(CCC(=O)O)(CCC(=O)O)CCC(=O)O |  | MIC |  |  | Mycobacterium abscessus | AAy-P-1 | 144 µg/mL
O=c1oc2ccc(F)cc2c(=S)n1-c1ccc(Br)cc1 |  | MIC |  | 21 d | Mycobacterium kansasii | 6509/96 | 4 µM
CC[C@H]1OC(=O)[C@H](C)[C@@H](OC2C[C@@](C)(OC)[C@@H](O)[C@H](C)O2)[C@H](C)[C@@H](O[C@@H]2O[C@H](C)C[C@H](N(C)C)[C@H]2O)C(C)(O)C[C@@H](C)/C(=N\OCCc2cccs2)[C@H](C)[C@@H](O)[C@]1(C)O |  | MIC |  |  | Mycobacterium avium intracellulare | 20066 (clarithromycin-susceptible) | 3.13 µg/mL

The first 5 rows once more:

CCCCCCCCCCCCCCCCCCCCCC(=O)NC(CCC(=O)O)(CCC(=O)O)CCC(=O)O ; read-out: MIC ; species: Mycobacterium marinum ; strain or isolate: ATCC 927 ; value: 54 µg/mL
Cc1ccc2oc(=O)n(-c3ccc(C(F)(F)F)cc3)c(=S)c2c1 ; read-out: MIC ; conditions: 14 d ; species: Mycobacterium kansasii ; strain or isolate: 6509/96 ; value: 16 µM
CCOc1ccc(N2CCC(c3ccc(CNC(=O)c4c(CC)nc5ccc(Cl)cn45)cc3F)CC2)cc1.Cl ; read by: fluorescence ; read-out: inhibition ; dose: 0.019 µM ; species: Mycobacterium avium ; value: 85%
CCCCCCCCCCCCCCNC(=O)NC(CCC(=O)O)(CCC(=O)O)CCC(=O)O ; read-out: MIC ; species: Mycobacterium smegmatis ; strain or isolate: mc155 ; value: 18 µg/mL
Cc1ccn2c(C(=O)NCc3ccc(-c4ccc(Cl)cc4)cc3)c(C)nc2c1 ; read by: fluorescence ; read-out: MIC50 ; species: Mycobacterium ulcerans ; value: 0.001–0.01 µg/mL

Percent inhibition refers to the dose given; in toxicity tests it is the harm to the cells. MIC50, MIC90 and the like: level of inhibition, or share of isolates inhibited. Neighbouring rows are from separate reports. Two numbers with a dash give a range or band.